Laboratory results: the supplement of paper PMC13380429
For part of these data: The highest values were mostly taken out for another list; the other results follow. For part of these data: Most of the hits are listed elsewhere, so they are rarer here than in the full data.

Columns and labels:
[1] = system: Vero E6 infected with SARS-CoV-2; experiment: inhibition of SARS-CoV-2 cytopathic effect; higher = more antiviral protection, active = above 15; conditions: 48 h
[2] = system: Vero E6 infected with SARS-CoV-2; experiment: morphology score (similarity to uninfected cells); higher = more like uninfected cells; conditions: 10 µM; 24 h
[3] = system: Vero E6 infected with SARS-CoV-2; experiment: SARS-CoV-2 infection rate relative to infected DMSO; higher = more infection, active = 60 or less; conditions: 10 µM; 24 h

SMILES | inhibition of SARS-CoV-2 cytopathic effect ([1]; 1 nM) | inhibition of SARS-CoV-2 cytopathic effect ([1]; 8.33 nM) | inhibition of SARS-CoV-2 cytopathic effect ([1]; 100 nM) | inhibition of SARS-CoV-2 cytopathic effect ([1]; 833.33 nM) | inhibition of SARS-CoV-2 cytopathic effect ([1]; 10000 nM) | morphology score [2] | SARS-CoV-2 infection rate [3]
COc1cc(Br)c(C[N+]2(CCOCCC3CCC4CC3C4(C)C)CCOCC2)cc1OC (configuration not stated) [pinaverium] | inactive: 1.66% | inactive: 0.27% | inactive: 1.52% | inactive: -1.65% | inactive: 1.64% | – | –
N/C(=N/CCc1ccc(I)cc1)SCCCc1cnc[nH]1 [iodophenpropit] | inactive: 3.1% | inactive: 0.48% | inactive: 1.12% | inactive: 5.3% | inactive: -0.14% | 0.216 | inactive: 80.5%
